Results from article PMC7055873 (PLoS ONE, 2020).

System: influenza A(H1N1)pdm09 viruses, neuraminidase (NA)

With CCC(CC)[C@H](NC(C)=O)[C@@H]1[C@H](O)[C@@H](C(=O)O)C[C@H]1N=C(N)N [Peramivir, peramivir] the IC50 was 0.07 nM and 0.08 nM and 0.09 nM.

“And” between values parts separate entries of the source, which are not always exact repeats. Equal entries are not always repeated.
